# Earlier results in patent US10144952B2, “Stabilization and isolation of extracellular nucleic acids” (QIAGEN GmbH, priority 2013, dated 2018).
# Target: anthrax lethal factor, a metalloprotease (Bacillus anthracis, UniProt P15917)
# Conditions: at ~20 μM; cited from earlier work
compound,measurement,value
FC(F)(F)c1cccc(-c2csc(C3COc4ccccc4O3)n2)c1 (stereo not shown),effect on activity of anthrax lethal factor,"assisted cleavage of BID, a proapoptotic protein. Weakly affects"
